Anti-infective test results gathered from many reports (values: NIAID ChemDB through PubChem).

Shared fields: growth or infection tests; agent: Candida albicans; read-out: MIC80

MIC50, MIC90 and the like: level of inhibition, or share of isolates inhibited. Conditions beyond the fields shown may differ between rows. Blank or dashed fields: not listed here.

SMILES,read by,strain,value
Cc1ccc(/C(CCn2ccnc2)=N\O)cc1,agar diffusion,-,0.5456 µg/mL
CCCCN(Cc1cn(Cc2cccc([N+](=O)[O-])c2)nn1)CC(O)(Cn1cncn1)c1ccc(F)cc1F,-,SC5314,4 µg/mL
O/N=C(/CCn1ccnc1)c1ccccc1,agar diffusion,-,0.5807 µg/mL
CCCCN(Cc1cn(Cc2ccccc2F)nn1)CC(O)(Cn1cncn1)c1ccc(F)cc1F,-,SC5314,1 µg/mL
NC(=O)N/N=C/c1ccsc1,turbidity / absorbance,ATCC 66396,>250 µg/mL
C[C@@H](N1CCN(Cc2cn(Cc3ccc(F)cc3F)c3ccccc23)CC1)[C@](O)(Cn1cncn1)c1ccc(F)cc1F,resazurin,ATCC 36082,0.125 µg/mL
CCCCN(Cc1cn(Cc2cccc(Cl)c2)nn1)CC(O)(Cn1cncn1)c1ccc(F)cc1F,-,Y0109,16 µg/mL
O=C(O/N=C(\CCn1ccnc1)c1ccc(Cl)cc1)c1ccc(Cl)cc1,agar diffusion,-,0.0805 µg/mL
C[C@@H](N1CCN(Cc2cn(Cc3ccc(Cl)cc3)c3c(Cl)cccc23)CC1)[C@](O)(Cn1cncn1)c1ccc(F)cc1F,resazurin,ATCC 90028,0.125 µg/mL
COc1ccc(/C=C/C(=O)OC2CCN(CC(O)(Cn3cncn3)c3ccc(F)cc3F)CC2)cc1OC,broth dilution,Y0109,0.03 µM
CCOC(=O)c1nc(NC(=O)c2nc(NC(=O)c3cc([N+](=O)[O-])cn3C)cn2C)cn1C,broth dilution,Y0109 (drug-susceptible),>200 µg/mL
Cc1ccc(-c2c3c(N)c4c(nc3nc3c2c(C)nn3-c2ccccc2)CCC4)cc1,broth dilution / absorbance,CCC 127,31.2 µg/mL
O=C(O/N=C(\CCn1ccnc1)c1ccccc1)c1ccc(C(F)(F)F)cc1,agar diffusion,-,0.6454 µg/mL
Cc1ccc(-c2c3c(N)c4c(nc3nc3c2c(C)nn3-c2ccccc2)CCCCC4)cc1,broth dilution / absorbance,CCC 128,62.5 µg/mL
CC(=O)OC1CCN(CC(O)(Cn2cncn2)c2ccc(F)cc2F)CC1,broth dilution,Y0109,0.164 µM
C[C@@H](N1CCN(Cc2cn(Cc3ccc(Cl)cc3Cl)c3c(Cl)cccc23)CC1)[C@](O)(Cn1cncn1)c1ccc(F)cc1F,resazurin,ATCC 90028,0.125 µg/mL
Cc1cc(C)c(N2C(=O)C=CC2=O)c(C)c1,broth dilution,ATCC 10231,2 µg/mL
CCCCN(Cc1cn(Cc2cccc(Br)c2)nn1)CC(O)(Cn1cncn1)c1ccc(F)cc1F,-,Y0109,1 µg/mL
O=C(/C=C/c1cccc(F)c1)OC1CCN(CC(O)(Cn2cncn2)c2ccc(F)cc2F)CC1,broth dilution,Y0109,0.005 µM
COc1cc(C(=O)O/N=C(\CCn2ccnc2)c2ccccc2)cc(OC)c1OC,agar diffusion,-,0.3053 µg/mL
O=C(/C=C/c1ccccc1Br)OC1CCN(CC(O)(Cn2cncn2)c2ccc(F)cc2F)CC1,broth dilution,Y0109,0.114 µM
OC(Cn1cncn1)(Cn1cncn1)c1ccc(F)cc1F,-,ATCC 90028 (azole-susceptible),0.25 µg/mL
COc1cc(/C=C/c2ccc(O)cc2)cc(OC)c1,broth dilution,0304103,32 µg/mL
CCCCCCCCCCCCC(=O)OC1CCN(CC(O)(Cn2cncn2)c2ccc(F)cc2F)CC1,broth dilution,Y0109,0.48 µM
C[C@@H](N1CCN(Cc2cn(Cc3ccc(Cl)cc3)c3ccccc23)CC1)[C@](O)(Cn1cncn1)c1ccc(F)cc1F,resazurin,ATCC MYA-1003,8 µg/mL
CN1CCN(c2n[nH]c(N3C(=O)CS[C@@H]3c3ccc4c(c3)OCO4)n2)CC1,broth dilution,149.97,0.78 µg/mL
O=C(/C=C/c1ccccc1Cl)OC1CCN(CC(O)(Cn2cncn2)c2ccc(F)cc2F)CC1,broth dilution,Y0109,0.124 µM
CCCCN(Cc1cn(Cc2ccccc2C#N)nn1)CC(O)(Cn1cncn1)c1ccc(F)cc1F,-,Y0109,16 µg/mL
OC(Cn1cncn1)(Cn1cncn1)c1ccc(F)cc1F,agar diffusion,-,>1.63 µg/mL
C[C@@H](c1ncncc1F)[C@](O)(Cn1cncn1)c1ccc(F)cc1F,-,ATCC 36082,0.03 µg/mL
Oc1ccc2c(c1)CCc1ccc(cc1)Oc1cc(ccc1O)CCc1cccc(O)c1-2,broth dilution,CA2,16 µg/mL
C=CCc1ccc(Cn2cc(CN3CCN([C@H](C)[C@](O)(Cn4cncn4)c4ccc(F)cc4F)CC3)c3cccc(F)c32)cc1,resazurin,ATCC 64548,0.125 µg/mL
O=C(/C=C/c1ccccc1)OC1CCN(CC(O)(Cn2cncn2)c2ccc(F)cc2F)CC1,broth dilution,Y0109,0.033 µM
OC(CN1CCN(c2ccc(OCc3ccncc3)cc2)CC1)(Cn1cncn1)c1ccc(F)cc1F,-,304103,2 µg/mL
C[C@@H](N1CCN(Cc2cn(Cc3ccc(Cl)cc3Cl)c3ccc(C#N)cc23)CC1)[C@](O)(Cn1cncn1)c1ccc(F)cc1F,resazurin,ATCC 90028,0.25 µg/mL
Cc1ccc(-c2c3c(N)c4c(nc3nc3c2c(C)nn3-c2ccccc2)CCCC4)cc1,broth dilution / absorbance,CCC 126,31.2 µg/mL
N#Cc1ccc(/C=C/C(=O)OC2CCN(CC(O)(Cn3cncn3)c3ccc(F)cc3F)CC2)cc1,broth dilution,Y0109,0.032 µM

A second listing of 4 rows from above:

N#Cc1ccc(/C=C/C(=O)OC2CCN(CC(O)(Cn3cncn3)c3ccc(F)cc3F)CC2)cc1 ; read by: broth dilution ; strain: Y0109 ; value: 0.032 µM
O=C(O/N=C(\CCn1ccnc1)c1ccccc1)c1ccc(C(F)(F)F)cc1 ; read by: agar diffusion ; value: 0.6454 µg/mL
O/N=C(/CCn1ccnc1)c1ccccc1 ; read by: agar diffusion ; value: 0.5807 µg/mL
OC(Cn1cncn1)(Cn1cncn1)c1ccc(F)cc1F ; read by: agar diffusion ; value: >1.63 µg/mL